A mixed list of measured activities; the numbers were collected in NIAID ChemDB.

All rows: growth or infection tests; species: Herpes simplex virus 2; cells: PRK; read by: cytopathic effect; measure: EC50

Conditions beyond the fields shown may differ between rows.

SMILES | strain or isolate | value
CSCc1cn([C@H]2C[C@H](O)[C@@H](CO)O2)c(=O)[nH]c1=O | LYONS | 4 µg/mL
O=c1[nH]c(=O)n([C@H]2C[C@H](O)[C@@H](CO)O2)cc1/C=C/Br | G | 2 µg/mL
O=c1[nH]c(=O)n([C@H]2C[C@H](O)[C@@H](CO)O2)cc1/C=C/Br | 196 | 70 µg/mL
O=c1[nH]c(=O)n([C@H]2C[C@H](O)[C@@H](CO)O2)cc1F | LYONS | >100 µg/mL
O=c1[nH]c(=O)n([C@H]2C[C@H](O)[C@@H](CO)O2)cc1I | G | 0.4 µg/mL
CCCc1cn([C@H]2C[C@H](O)[C@@H](CO)O2)c(=O)[nH]c1=O | 196 | 5.6 µg/mL
O=c1[nH]c(=O)n(C2CC(O)C(CO)O2)cc1CCCCl | LYONS | 0.23 µg/mL
O=c1[nH]c(=O)n([C@H]2C[C@H](O)[C@@H](COP(=O)(O)O)O2)cc1CCc1ccccc1 | 196 | 10 µg/mL
CCCc1cn([C@H]2C[C@H](O)[C@@H](COP(=O)(O)O)O2)c(=O)[nH]c1=O | 196 | 5 µg/mL
O=Cc1cn([C@H]2C[C@H](O)[C@@H](CO)O2)c(=O)[nH]c1=O | LYONS | 2 µg/mL
CCc1cn([C@H]2C[C@H](O)[C@@H](CO)O2)c(=O)[nH]c1=O | LYONS | 0.2 µg/mL
[N-]=[N+]=NCc1cn([C@H]2C[C@H](O)[C@@H](CO)O2)c(=O)[nH]c1=O | VCX301 | 4 µg/mL
Nc1nc(=O)n(C2CC(O)C(CO)O2)cc1CCCl | G | 8.7 µg/mL
Nc1nc2c(ncn2COCCOP(=O)(O)O[C@@H]2[C@H](O)[C@@H](COP(=O)(O)O[C@@H]3[C@H](O)[C@@H](CO)O[C@H]3n3cnc4c(N)ncnc43)O[C@H]2n2cnc3c(N)ncnc32)c(=O)[nH]1 | 196 | 0.7 µg/mL
CCc1cn([C@H]2C[C@H](O)[C@@H](CO)O2)c(N)nc1=O | 196 | >400 µg/mL
O=c1[nH]c(=O)n([C@@H]2O[C@H](CO)[C@@H](O)[C@@H]2O)cc1/C=C/Br | 196 | 70 µg/mL
O=c1[nH]c(=O)n([C@H]2C[C@H](O)[C@@H](COP(=O)(O)O)O2)cc1/C=C/c1ccccc1 | G | 40 µg/mL
Nc1ncnc2c1ncn2C[C@H](O)CO | G | >400 µg/mL

A second listing of 2 rows from above:

SMILES,strain or isolate,value
O=c1[nH]c(=O)n([C@H]2C[C@H](O)[C@@H](CO)O2)cc1/C=C/Br,196,70 µg/mL
O=c1[nH]c(=O)n([C@H]2C[C@H](O)[C@@H](CO)O2)cc1F,LYONS,>100 µg/mL

ECn: concentration that inhibits the pathogen or its effect by n%.